Consider 13 substances from publication PMC5308254, “Bioactivity of Natural and Engineered Antimicrobial Peptides from Venom of the Scorpions Urodacus yaschenkoi and U. manicatus” (Toxins, 2017).

No end group written: not given here.

Holding throughout (format): cell-based
Holding throughout (settings): calculated based on HC50 values (pig erythrocytes) and MIC; ratio HC50 / MIC

One series concerns Escherichia coli (D31). In words: Growth inhibition assay (MIC), E. coli. On the procedure: (§1) The minimal inhibitory concentration (MIC) of each AMPs was determined against the Gram-positive bacteria Listeria monocytogenes (DSM20600), L. grayi (DSM20601), L. fleischmannii (DSM24998), Staphylococcus aureus (DSM2569) and Micrococcus luteus (DSM20030), and the Gram-negative species Escherichia coli (D31) and Pseudomonas aeruginosa (DSM50071). The scorpion peptides were prepared at concentrations of 0.015–250 μM. The assays were carried out in 384-well plates (Greiner Bio One, Frickenhausen, Germany) using Brain Heart Infusion Broth (BHIB) medium for Listeria spp., Tryptic Soy Broth (TSB) for S. aureus, and lysogeny broth (LB) for the others. The bacteria were cultivated overnight at either 37 °C (Listeria spp., S. aureus, E. coli and P. aeruginosa) or 30 °C (M. luteus) and subcultured in fresh media before the growth inhibition assays. Growth inhibition was measured as previously described.

Series [1] deals with Staphylococcus aureus (DSM2569). In words: Growth inhibition assay (MIC), S. aureus. On the procedure:
as §1

Series [2] relates to Listeria monocytogenes (DSM20600). In words: Growth inhibition assay (MIC), L. monocytogenes. On the procedure: as §1

Regarding FLSTIWNGIKGLL-NH2 [Uy192], in the series on Escherichia coli (D31), the “Therapeutic index (TI) E. coli” value is 10.37. For the same substance, the “Therapeutic index (TI) S. aureus” value in series [1] is on record as 10.37. Also, in series [2], the “Therapeutic index (TI) L. monocytogenes” value is reported as 19.45.
As for FLSTIWNGIKSLF-NH2 [D2], the “Therapeutic index (TI) S. aureus” value in series [1] was 3.06. Besides, in series [2], the “Therapeutic index (TI) L. monocytogenes” value is 1.63.
Consider FPFLKLSLKIPKSAIKSAIKRL-NH2 [D10], for which the “Therapeutic index (TI) E. coli” value with Escherichia coli (D31) is 215.75. For the same substance, in series [2], the “Therapeutic index (TI) L. monocytogenes” value is recorded as 57.53.
With FPFLLSLIPSAISAIKRL-NH2 [Uy234], the “Therapeutic index (TI) L. monocytogenes” value in series [2] is recorded as 52.25.
Take GFWGKLLEGVKKAI-NH2 [D5]: in the series with Escherichia coli (D31), the “Therapeutic index (TI) E. coli” value was 109.06. Further, in series [2], the “Therapeutic index (TI) L. monocytogenes” value is recorded as 109.06.
Turning to GFWGKLWEGVKNAI-NH2 [UyCT1], the “Therapeutic index (TI) E. coli” value in the series on Escherichia coli (D31) is reported as 35.62. The “Therapeutic index (TI) L. monocytogenes” value in series [2] is reported as 35.62.
On to GFWGKLWEGVKNAIKKK-NH2 [D11], for which the “Therapeutic index (TI) E. coli” value in the series with Escherichia coli (D31) is listed as 277.5. Further, the “Therapeutic index (TI) L. monocytogenes” value in series [2] is 555.
On to GFWGKLWEGVKSAI-NH2 [Um3], for which the “Therapeutic index (TI) E. coli” value with Escherichia coli (D31) is listed as 8.41. In addition, the “Therapeutic index (TI) S. aureus” value in series [1] is on record as 8.41. Further, in series [2], the “Therapeutic index (TI) L. monocytogenes” value was 15.77.
Turning to IFGAIWSGIKSLF-NH2 [D1], in the series with Escherichia coli (D31), the “Therapeutic index (TI) E. coli” value was 5.99. In addition, the “Therapeutic index (TI) L. monocytogenes” value in series [2] is recorded as 11.99.
On to IFKAIWSGIKSLF-NH2 [Um5], for which the “Therapeutic index (TI) E. coli” value in the series on Escherichia coli (D31) was 3.95. Further, the “Therapeutic index (TI) L. monocytogenes” value in series [2] is given as 29.62.
In the case of ILSAIWSGIKGLL-NH2 [Uy17], the “Therapeutic index (TI) S. aureus” value in series [1] is 4.61. In addition, the “Therapeutic index (TI) L. monocytogenes” value in series [2] is recorded as 9.22.
As to ILSAIWSGIKSLF-NH2 [UyCT3], the “Therapeutic index (TI) E. coli” value in the series on Escherichia coli (D31) is recorded as 7.26. The “Therapeutic index (TI) L. monocytogenes” value in series [2] was 14.53.
IWSAIWSGIKGLL-NH2 [UyCT5]: the “Therapeutic index (TI) E. coli” value with Escherichia coli (D31) was 1.37. The “Therapeutic index (TI) S. aureus” value in series [1] is listed as 2.57. The “Therapeutic index (TI) L. monocytogenes” value in series [2] is reported as 5.14.
